Results of unrelated studies side by side (data: NIAID ChemDB).

All rows: tests in culture; species: HIV-2

ECn is the concentration giving n% inhibition of infection, replication or growth. Rows are shuffled and stem from different studies. Blank or dashed fields: not listed here.

compound	method	mutations	strain or isolate	cells	measure	result
O=c1[nH]c(=O)n([C@H]2C[C@H](O)[C@@H](CO)O2)cc1/C=C/Br	cytopathic effect / trypan blue			MT-4	EC50	>500 µM
Cc1cn([C@H]2C[C@H](N=[N+]=[N-])[C@@H](CO)O2)c(=O)[nH]c1=O	MTT		ROD	MT-4	EC50	0.006 µM
CC(C)(C)C(=O)c1sc(C(=O)NCc2ccccc2)c(O)c1O	p24		D194	PBMC	EC50	0.7 µM
CN(C)C(=O)c1cnnn1[C@@H]1O[C@H](CO[Si](C)(C)C(C)(C)C)C2(OS(=O)(=O)C=C2N)[C@H]1O[Si](C)(C)C(C)(C)C	cytopathic effect		ROD	CEM	EC50	>7 µM
O=C1CSC(c2cccnc2)N1Cc1ccco1	cytopathic effect		ROD	MT-4	EC50	84 µM
COC(=O)[C@@H](C)NP(=O)(OC[C@@H]1C=C[C@H](n2cc(C)c(=O)[nH]c2=O)O1)Oc1ccccc1				CEM	EC50	2 µM
CC(C)=CCN1Cc2cccc3[nH]c(=S)n(c23)C[C@@H]1C	cytopathic effect / XTT		CBL-20	CEM + CEM-SS	EC50	>100 µM
NC(=O)c1ncn([C@@H]2O[C@H](CO)[C@@H](O)[C@H]2O)n1	cytopathic effect / trypan blue			MT-4	EC50	>500 µM
CO[C@H]1[C@@H](O)[C@H](n2ccc(N)nc2=O)[C@@H](O)[C@H](O)[C@@H]1O	cytopathic effect / MTT			MT-4	EC50	>10 µg/mL
Cc1cn([C@H]2C[C@H](N=[N+]=[N-])[C@@H](CO)O2)c(=O)[nH]c1=O	cytopathic effect / MTT		ROD	CEM + CEM-SS	EC50	0.018 µM
Nc1nc2c(ncn2C2CC=C[C@H]2CO)c(=O)[nH]1			ROD	CEM	EC50	>100 µM
COC(=O)C(C)(C)NP(=O)(OC[C@@H]1C=C[C@H](n2cc(C)c(=O)[nH]c2=O)O1)Oc1ccccc1	syncytia		ROD Laboratory clade B	CEM + CEM/O	EC50	0.5 µM
COc1ccc(CN[C@@H](C(=O)N[C@H](C(=O)NCc2nc3ccccc3[nH]2)C(C)C)[C@H](O)[C@H](Cc2ccccc2)NC(=O)[C@@H](NC(=O)CCc2ccc(O)cc2)C(C)(C)C)cc1	p24		EHO	MT-4	EC50	0.38 µM
CC(=O)OC(OC(C)=O)c1cc(C)c2c(c1)COP(=O)(OC[C@@H]1C=C[C@H](n3cc(C)c(=O)[nH]c3=O)O1)O2				CEM + CEM TK-	EC50	2 µM
O=C1CCSC(c2c(F)cccc2F)N1Cc1ccco1	cytopathic effect		ROD	MT-4	EC50	50.7 µM
CO[C@@H]1[C@@H](O)[C@@H](O)[C@H](O)[C@H](O)[C@H]1n1ccc(N)nc1=O.O=C(O)/C=C/C(=O)O	cytopathic effect / MTT			MT-4	EC50	>10 µg/mL
CN(C)S(=O)(=O)N1CCC(NC(=O)c2cc(O)c(O)c(O)c2)CC1	MTT		ROD	MT-4	EC50	>34.8 µM
C#C[C@]1(CO)O[C@@H](n2cnc3c(N)nc(F)nc32)CC1O	β-galactosidase / absorbance	K65R M184V	ROD9	MAGIC-5A	EC50	0.008 µM
N#Cc1cccc(CN2CCC(N=C3C=C(Cc4ccc(Cl)cc4Cl)NS(=O)(=O)N3)CC2)c1	MTT		ROD	MT-4	EC50	>99.87 µM
Cc1cc(C#N)cc(C)c1Oc1nc(Nc2ccc(C#N)cc2)ncc1SCC(=O)N1CCSCC1	MTT		ROD	MT-4	EC50	>242 µM
O=C(O)c1cc(O)cc(O)c1N=Nc1ccc(/C=C/c2ccc(N=Nc3c(O)cc(O)cc3C(=O)O)cc2S(=O)(=O)O)c(S(=O)(=O)O)c1	cytopathic effect / XTT		ROD	CEM + CEM-SS	EC50	11.9 µg/mL
CN(C)c1ccc(C2SCC(=O)N2Cc2ccco2)cc1	cytopathic effect		ROD	MT-4	EC50	11.5 µM
Cc1cn([C@H]2C[C@H](N=[N+]=[N-])[C@@H](CO)O2)c(=O)[nH]c1=O	ELISA		1010	PBMC	EC50	0.04 µM
O=[N+]([O-])c1ccc(CN2CCC(N=C3C=C(Cc4cccc5ccccc45)NS(=O)(=O)N3)CC2)cc1	MTT		ROD	MT-4	EC50	>104 µM
CCOCn1c(Sc2ccccc2)c(CC)c(=O)[nH]c1=O	cytopathic effect / MTT		ROD	MT-4	EC50	>146 µM
CCc1c(Cc2cc(C)cc(C)c2)nc(SCC(=O)c2ccc(OC)cc2)[nH]c1=O	MTT		ROD	MT-4	EC50	54.78 µM
NC1=CS(=O)(=O)OC12C1CC3CC(C1)CC2C3					EC50	>200 µg/mL
CC(C)(C)NC(=O)[C@@H]1C[C@@H]2CCCC[C@@H]2CN1C[C@@H](O)[C@H](Cc1ccccc1)NC(=O)[C@H](CC(N)=O)NC(=O)c1ccc2ccccc2n1	RT activity		ROD	PBMC	EC50	0.01 µM
CCS(=O)(=O)N1CCC(NC(=O)c2cc(O)c(O)c(O)c2)CC1	MTT		ROD	MT-4	EC50	>36.6 µM
COC(=O)[C@H](C)NP(=O)(OC[C@H]1C/C1=C/n1cnc2c(N)nc(N)nc21)Oc1ccccc1	p24		ROD	MT-2	EC50	0.38 µM
Cc1cn([C@H]2C=C[C@@H](CO)O2)c(=O)[nH]c1=O			ROD	CEM	EC50	0.34 µM
CCNC(=O)c1cnnn1C1OC(CO[Si](C)(C)C(C)(C)C)C2(OS(=O)(=O)C=C2N)C1O[Si](C)(C)C(C)(C)C	cytopathic effect		ROD	CEM	EC50	>250 µM
Cc1cn([C@H]2C[C@H](N=[N+]=[N-])[C@@H](CO)O2)c(=O)[nH]c1=O			ROD	CEM	EC50	0.006 µM
COc1ccc(C(=O)N2CCC(NC(=O)c3cc(O)c(O)c(O)c3)CC2)cc1	MTT		ROD	MT-4	EC50	>85.7 µM
COc1ccc(CN[C@@H](C(=O)N[C@H](C(=O)NCc2nc3ccccc3[nH]2)C(C)C)[C@H](O)[C@H](Cc2ccccc2)NC(=O)[C@@H](NC(=O)[C@@](C)(O)c2ccccc2)C(C)(C)C)cc1	p24		ROD	MT-4	EC50	0.77 µM
COC(=O)CS(=O)(=O)c1cnc(Nc2ccc(C#N)cc2)nc1Oc1c(C)cc(C#N)cc1C	MTT		ROD	MT-4	EC50	>262 µM
O=C1CSC(c2ccnc3ccccc23)N1c1ccccn1	cytopathic effect		ROD	MT-4	EC50	7.1 µM
Nc1nc(NC2CC2)c2ncn([C@H]3C=C[C@@H](CO)C3)c2n1	cytopathic effect / propidium iodide		ZY	MT-4	EC50	4.1 µM
COC(=O)CCNP(=O)(OC[C@@H]1C=C[C@H](n2cc(C)c(=O)[nH]c2=O)O1)Oc1ccccc1	syncytia		ROD	CEM + CEM/O	EC50	6 µM
Cc1cc(C)cc(S(=O)(=O)N2CCC(NC(=O)c3cc(O)c(O)c(O)c3)CC2)c1	MTT		ROD	MT-4	EC50	>74 µM
O=S1(=O)NC(Cc2ccc(Cl)cc2Cl)=CC(=NC2CCN(Cc3ccccc3)CC2)N1	MTT		ROD	MT-4	EC50	>110.8 µM
Cc1cn([C@H]2C[C@H](N=[N+]=[N-])[C@@H](CO)O2)c(=O)[nH]c1=O	cytopathic effect / MTT		EHO	MT-4	EC50	0.0011 µM
CC(=O)c1ccc(C)cc1NC(C(N)=O)c1c(Cl)cccc1Cl	cytopathic effect / MTT		EHO	MT-4	EC50	>137 µM
CCCC(=O)O[C@H]1CN2CC[C@H](O)[C@@H]2[C@@H](O)[C@@H]1O			ROD	H9	EC50	<4 µM
Nc1nccc2c1ncn2[C@@H]1C[C@H](CO)[C@@H](O)[C@H]1O	cytopathic effect / trypan blue			MT-4	EC50	>500 µM
N#Cc1ccccc1CN1CCC(N=C2C=C(Cc3cccc4ccccc34)NS(=O)(=O)N2)CC1	MTT		ROD	MT-4	EC50	>108 µM
NC(N)=NCCCCNc1ccc2[nH]ccc2c1.O=S(O)O	MTT		ROD	MT-4	EC50	>213 µM
CC(C)[C@H](NC(=O)OCc1ccccc1)C(=O)N[C@@H](Cc1ccccc1)[C@@H](O)[C@@H](NCc1ccc(Cl)cc1)C(=O)N[C@H](C(=O)NCc1nc2ccccc2[nH]1)C(C)C	p24		EHO	MT-4	EC50	0.55 µM
Cc1nnc(C(C)C)n1C1C[C@H]2CC[C@@H](C1)N2CC[C@H](NC(=O)C1CCC(F)(F)CC1)c1ccccc1			X4		EC50	>1000 nM
NC(=NCCCCNc1ccc2[nH]ccc2c1)N[N+](=O)[O-]	MTT		ROD	MT-4	EC50	>431 µM
c1cc(CN2CCNCCNCCNCC2)cc(CN2CCNCCNCCNCC2)c1	syncytia		GH-1	MT-4	EC50	0.021 µM
Nc1ccn([C@H]2CC[C@@H](CO)O2)c(=O)n1	cytopathic effect / MTT		ROD	MT-4	EC50	0.118 µM
NC(=NCCNc1ccc2[nH]ccc2c1)N[N+](=O)[O-]	MTT		ROD	MT-4	EC50	>400 µM
CC(=O)Nc1nc(C)c(S(=O)(=O)N2CCC(NC(=O)c3cc(O)c(O)c(O)c3)CC2)s1	MTT		ROD	MT-4	EC50	>80 µM
CO[C@@H]1[C@@H](O)[C@@H](O)[C@H](O)[C@H](O)[C@H]1n1cnc2c(N)ncnc21.O=C(O)/C=C/C(=O)O	cytopathic effect / MTT			MT-4	EC50	>10 µg/mL
Cc1ccnc2c1NC(=O)c1cccnc1N2C1CC1	RT activity		ROD	PBMC	EC90	>20 µM
C=C1[C@H](CO)[C@@H](O)C[C@@H]1n1cnc2c(=O)[nH]c(N)nc21	MTT		ROD	MT-4	EC50	>27.78 µM
CCN(C)C(=O)c1cnnn1C1OC(CO[Si](C)(C)C(C)(C)C)C2(OS(=O)(=O)C=C2N)C1O[Si](C)(C)C(C)(C)C	cytopathic effect		ROD	CEM	EC50	>50 µM
COc1ccc(CN[C@@H](C(=O)N[C@H](C(=O)NCc2nc3ccccc3[nH]2)C(C)C)[C@H](O)[C@H](Cc2ccccc2)NC(=O)[C@@H](NC(=O)OCc2ccccc2)C(C)(C)C)cc1	p24		ROD	MT-4	EC50	0.755 µM
CCCc1cc(=O)oc2c3c(c4c(c12)OC(C)(C)C=C4)O[C@H](C)[C@@H](C)[C@@H]3O	cytopathic effect / XTT		ROD	CEM + CEM-SS	EC50	>10 µM
O=C1CSC(c2c(F)cccc2F)N1c1cccc(C(F)(F)F)c1	cytopathic effect		ROD	MT-4	EC50	12.2 µM
c1ccc(CNCc2ccc(CN3CCCNCCNCCCNCC3)cc2)nc1			ROD		EC50	0.01 µg/mL
COc1ccc(S(=O)(=O)N2CCC(NC(=O)c3cc(O)c(O)c(O)c3)CC2)cc1	MTT		ROD	MT-4	EC50	>130.5 µM
O=C1CSC(c2c(F)cccc2Cl)N1c1cccc(C(F)(F)F)c1	cytopathic effect		ROD	MT-4	EC50	10.6 µM
NC(N)=NCCCNc1ccc2[nH]ccc2c1.O=S(O)O	MTT		ROD	MT-4	EC50	>38.03 µM
CC(C)(C)[Si](C)(C)OCC1OC(n2nncc2C(=O)NC2CCC2)C(O[Si](C)(C)C(C)(C)C)C12OS(=O)(=O)C=C2N	cytopathic effect		ROD	MT-4	EC50	>250 µM

Repeating the final 10 entries:

{"compound": "C=C1[C@H](CO)[C@@H](O)C[C@@H]1n1cnc2c(=O)[nH]c(N)nc21", "method": "MTT", "strain or isolate": "ROD", "cells": "MT-4", "measure": "EC50", "result": ">27.78 µM"}
{"compound": "CCN(C)C(=O)c1cnnn1C1OC(CO[Si](C)(C)C(C)(C)C)C2(OS(=O)(=O)C=C2N)C1O[Si](C)(C)C(C)(C)C", "method": "cytopathic effect", "strain or isolate": "ROD", "cells": "CEM", "measure": "EC50", "result": ">50 µM"}
{"compound": "COc1ccc(CN[C@@H](C(=O)N[C@H](C(=O)NCc2nc3ccccc3[nH]2)C(C)C)[C@H](O)[C@H](Cc2ccccc2)NC(=O)[C@@H](NC(=O)OCc2ccccc2)C(C)(C)C)cc1", "method": "p24", "strain or isolate": "ROD", "cells": "MT-4", "measure": "EC50", "result": "0.755 µM"}
{"compound": "CCCc1cc(=O)oc2c3c(c4c(c12)OC(C)(C)C=C4)O[C@H](C)[C@@H](C)[C@@H]3O", "method": "cytopathic effect / XTT", "strain or isolate": "ROD", "cells": "CEM + CEM-SS", "measure": "EC50", "result": ">10 µM"}
{"compound": "O=C1CSC(c2c(F)cccc2F)N1c1cccc(C(F)(F)F)c1", "method": "cytopathic effect", "strain or isolate": "ROD", "cells": "MT-4", "measure": "EC50", "result": "12.2 µM"}
{"compound": "c1ccc(CNCc2ccc(CN3CCCNCCNCCCNCC3)cc2)nc1", "strain or isolate": "ROD", "measure": "EC50", "result": "0.01 µg/mL"}
{"compound": "COc1ccc(S(=O)(=O)N2CCC(NC(=O)c3cc(O)c(O)c(O)c3)CC2)cc1", "method": "MTT", "strain or isolate": "ROD", "cells": "MT-4", "measure": "EC50", "result": ">130.5 µM"}
{"compound": "O=C1CSC(c2c(F)cccc2Cl)N1c1cccc(C(F)(F)F)c1", "method": "cytopathic effect", "strain or isolate": "ROD", "cells": "MT-4", "measure": "EC50", "result": "10.6 µM"}
{"compound": "NC(N)=NCCCNc1ccc2[nH]ccc2c1.O=S(O)O", "method": "MTT", "strain or isolate": "ROD", "cells": "MT-4", "measure": "EC50", "result": ">38.03 µM"}
{"compound": "CC(C)(C)[Si](C)(C)OCC1OC(n2nncc2C(=O)NC2CCC2)C(O[Si](C)(C)C(C)(C)C)C12OS(=O)(=O)C=C2N", "method": "cytopathic effect", "strain or isolate": "ROD", "cells": "MT-4", "measure": "EC50", "result": ">250 µM"}